Measured values from several laboratories, pooled; numbers as filed in NIAID ChemDB.

Shared fields: whole-cell or culture tests; organism: Candida albicans; measure: MIC50

A number after MIC or MFC names an inhibition level or a share of isolates. a–b is a range or a potency band. Blank or dashed fields: not listed here. Rows are shuffled and stem from different studies.

smiles,strain or isolate,value
OC(Cn1cncn1)(Cn1cncn1)c1ccc(F)cc1F,ATCC 10231,1 µg/mL
[N-]=[N+]=Nc1ccc(S(N)(=O)=O)cc1,,>100 µg/mL
C[C@H]1[C@H](O)[C@@H](C)/C=C/C=C/C=C/C=C/C=C/C=C/C=C/[C@H](O[C@@H]2O[C@H](C)[C@@H](O)[C@H](N)[C@@H]2O)C[C@@H]2O[C@](O)(C[C@@H](O)C[C@@H](O)CC[C@H](O)[C@@H](O)C[C@@H](O)CC(=O)O[C@H]1C)C[C@H](O)[C@H]2C(=O)O,206 isolates,1 µg/mL
CCC(C)n1ncn(-c2ccc(N3CCN(c4ccc(OC[C@H]5CO[C@](Cn6cncn6)(c6ccc(Cl)cc6Cl)O5)cc4)CC3)cc2)c1=O,4054 strains (fluconazole-susceptible),0.03 µg/mL
C[C@@H](c1ncncc1F)[C@](O)(Cn1cncn1)c1ccc(F)cc1F,206 isolates,0.03 µg/mL
C=C(Cl)CN1C[C@H](OCC23C[C@@H]4[C@H](C)CC[C@H]4C4(C=O)CC2C=C(C(C)C)C34C(=O)O)O[C@H](C)C1,22 isolates,0.016 µg/mL
Nc1ccc(S(N)(=O)=O)cc1,,>100 µg/mL
CCC(C)n1ncn(-c2ccc(N3CCN(c4ccc(OC[C@H]5CO[C@](Cn6cncn6)(c6ccc(Cl)cc6Cl)O5)cc4)CC3)cc2)c1=O,,0.008–0.03 µg/mL
Clc1ccccc1C(c1ccccc1)(c1ccccc1)n1ccnc1,,3.13 µg/mL
C[C@H]1[C@H](O)[C@@H](C)/C=C/C=C/C=C/C=C/C=C/C=C/C=C/[C@H](O[C@@H]2O[C@H](C)[C@@H](O)[C@H](N)[C@@H]2O)C[C@@H]2O[C@](O)(C[C@@H](O)C[C@@H](O)CC[C@H](O)[C@@H](O)C[C@@H](O)CC(=O)O[C@H]1C)C[C@H](O)[C@H]2C(=O)O,,0.25–0.5 µg/mL
CN(C/C=C/C#CC(C)(C)C)Cc1cccc2ccccc12,ATCC 10231,0.5 µg/mL
Clc1ccc(C(Cn2ccnc2)OCc2ccc(Sc3ccccc3)cc2)c(Cl)c1,106 isolates,8 µg/mL
NS(=O)(=O)c1ccc(-n2cc(CO)nn2)cc1,,>100 µg/mL
C[C@H]1[C@H](O)[C@@H](C)/C=C/C=C/C=C/C=C/C=C/C=C/C=C/[C@H](O[C@@H]2O[C@H](C)[C@@H](O)[C@H](N)[C@@H]2O)C[C@@H]2O[C@](O)(C[C@@H](O)C[C@@H](O)CC[C@H](O)[C@@H](O)C[C@@H](O)CC(=O)O[C@H]1C)C[C@H](O)[C@H]2C(=O)O,183 strains,0.5 µg/mL
CC(=O)N1CCN(c2ccc(OC[C@H]3CO[C@](Cn4ccnc4)(c4ccc(Cl)cc4Cl)O3)cc2)CC1,106 isolates,16 µg/mL
C[C@@H](c1ncncc1F)[C@](O)(Cn1cncn1)c1ccc(F)cc1F,85 strains (fluconazole-resistant),1 µg/mL
C[C@H](CCC1NC1(C)C)[C@H]1CC[C@]2(C)C3CC=C4C(C)(C)C(O)CC[C@]4(C)C3CC[C@]12C,ATCC 10231,1 µg/mL
Clc1ccc(COC(Cn2ccnc2)c2ccc(Cl)cc2Cl)cc1,106 isolates,4 µg/mL
CCCCCOc1ccc(-c2cc(-c3ccc(C(=O)N[C@H]4C[C@@H](O)[C@@H](O)NC(=O)[C@@H]5[C@@H](O)[C@@H](C)CN5C(=O)[C@H]([C@H](O)CC(N)=O)NC(=O)[C@H]([C@H](O)[C@@H](O)c5ccc(O)c(OS(=O)(=O)O)c5)NC(=O)[C@@H]5C[C@@H](O)CN5C(=O)[C@H]([C@@H](C)O)NC4=O)cc3)no2)cc1,,0.015 µg/mL

Repeating the first 2 entries:

smiles,strain or isolate,value
OC(Cn1cncn1)(Cn1cncn1)c1ccc(F)cc1F,ATCC 10231,1 µg/mL
[N-]=[N+]=Nc1ccc(S(N)(=O)=O)cc1,,>100 µg/mL